This note sets out measurements from ChEMBL document CHEMBL3046385, “Synthesis and bioactivity of novel 3-(1-hydroxyethylidene)-5-substituted-pyrrolidine-2,4-dione derivatives” (Chin Chem Lett, 2012).

In brackets after ≈: the same amount, converted by molar mass.

The subject of the assay is Brassica rapa subsp. oleifera. Kind of assay: Herbicidal activity against Brassica rapa subsp. oleifera assessed as root inhibition.

The EC50 is the concentration at which the effect is half-maximal. As for `CCC(C)C1NC(=O)/C(=C(/C)O)C1=O` (stereo unspecified), the EC50 came out at 15 mg/L (≈ 76.1 µM).
